Assay: general procedure: peptide synthesis; BOC-Glu(OcHex)-resin
Conditions: whole synthesis

HIV-1 30-86 Cys-Acm 30-34
isolated mass: about 16 milligrams
